Measurements reported in PubChem BioAssay AID624099 (ICCB-Longwood, 2012).
Aim: 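Knock-downs relieving repression by E2 of an HPV18 LCR luciferase reporter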 (primary screen). Cells: human C33A cervical carcinoma cells (HPV-negative) stably expressing BPV1 E2 and an HPV18 LCR luciferase reporter. Reagents: siRNA pool against human genes, 40 nM. Time to read-out: 72 h. Measurement: 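HPV18 LCR reporter light per well, converted to plate-wise z-scores that exclude control wells, and averaged over triplicate plates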. Reading the numbers: mean z-score and z-score: higher = stronger reporter signal, weaker E2 silencing. Active means: 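Hit if mean z-score reaches 2 and two or more of three replicate z-scores also reach 2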.
Here is a random part of about 21,000 reagents. Over the whole deposit, 497 (2.4%) are marked active. 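Higher z means weaker E2 silencing; only reporter increases were scored, and knock-downs that hurt cell survival may mask genuine repressor factors.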

no.	gene	mean z-score	z-score, replicate A	z-score, replicate B	z-score, replicate C	activity call
1	PSME1	-0.14	-0.3	-0.03	-0.09	inactive
2	CSNK2A1	1.31	1.63	1.18	1.11	inactive
3	LOC389637 (retired record)	-0.5	-0.37	-0.48	-0.65	inactive
4	TP53BP1	-0.08	-0.02	-0.1	-0.11	inactive
5	GPS2	0.46	0.58	0.19	0.63	inactive
6	APOM	1.87	1.73	1.69	2.2	inactive
7	H2BC1	0.12	-0.03	0.3	0.09	inactive
8	SPINT2	0.79	0.86	0.63	0.87	inactive
9	ADGRE1	-0.72	-0.7	-0.47	-0.98	inactive
10	TMEM186	0.79	0.18	1.06	1.12	inactive
11	LOC401215 (retired record)	0.06	0.23	-0.09	0.03	inactive
12	CIMAP1A	0.74	1.44	0.19	0.57	inactive
13	ABHD8	1.13	1.28	1.21	0.91	inactive
14	MTAP	-0.24	-0.38	0.02	-0.38	inactive
15	ITPRIPL1	-0.22	0.42	-0.33	-0.74	inactive
16	ANO2	2.09	2.07	2.41	1.78	active
17	LOC401119 (retired record)	-0.43	0.22	-0.61	-0.91	inactive
18	DOCK3	-0.64	-0.59	-0.7	-0.64	inactive
19	LINC01107	0.12	0.33	-0.27	0.28	inactive
20	REXO6P	1.71	2.28	1.6	1.26	inactive
21	LMAN1	1.87	2.09	2.12	1.39	inactive
22	SUB1	-1.95	-1.83	-1.9	-2.13	inactive
23	LOC283816 (retired record)	-0.09	-0.02	-0.52	0.26	inactive
24	CCDC33	-2.37	-2.09	-2.36	-2.66	inactive
25	RAMP1	1.52	1.79	1.41	1.36	inactive
26	EPHA7	0.09	0.44	0.2	-0.37	inactive
27	RAD9A	0.2	0.27	0.36	-0.03	inactive
28	RAN	-0.56	-0.53	-0.55	-0.61	inactive
29	FAAH2	-0.03	-0.23	0.01	0.12	inactive
30	PRDM5	-0.82	-1.09	-0.8	-0.56	inactive
31	SCN9A	-0.52	-0.5	-0.46	-0.59	inactive
32	FRA10AC1	0.29	0.37	0.25	0.25	inactive
33	ACOT11	1.57	1.43	1.55	1.73	inactive
34	ZNF440	0.86	1.09	0.74	0.73	inactive
35	CTNS	-0.14	-0.26	-0.31	0.15	inactive
36	AADACL4	1.16	1.16	0.83	1.49	inactive
37	UBL3	-0.41	-0.4	-0.25	-0.58	inactive
38	NEU2	-0.57	-0.61	-0.59	-0.52	inactive
39	LRRC61	0.69	0.29	0.81	0.97	inactive
40	TOP2B	1.03	1.37	0.72	1	inactive
41	MRTO4	-0.35	-0.47	-0.13	-0.46	inactive
42	SLC17A2	1.31	1.55	1.16	1.24	inactive
43	NLE1	0.41	0.11	0.51	0.6	inactive
44	LOC389654 (retired record)	2.14	1.91	2.34	2.18	active
45	XKRX	-0.25	0.05	-0.52	-0.26	inactive
46	LOC389117 (retired record)	-0.45	-0.6	-0.33	-0.44	inactive
47	H2BC3	-0.93	-0.8	-1.09	-0.91	inactive
48	STAB1	-0.94	-0.68	-0.95	-1.2	inactive
49	ZNF585B	-0.11	0.07	-0.2	-0.21	inactive
50	LOC400411 (retired record)	-0.62	-0.45	-0.99	-0.41	inactive
51	EPB42	0.38	0.32	0.27	0.55	inactive
52	REXO5	0.96	1.26	0.42	1.19	inactive
53	ATP6V0D2	-0.66	-0.86	-0.65	-0.48	inactive
54	RAB9B	0.06	0.08	0.08	0.03	inactive
55	HIBADH	1.5	1.78	1.41	1.31	inactive
56	JAKMIP1	-0.6	-0.53	-0.9	-0.36	inactive
57	TMT1B	0.15	0.56	-0.39	0.28	inactive
